PubChem BioAssay AID1259414 | Drosophila RNAi Screening Center | 2018
In all, the deposit lists about 24,000 reagents; shown is a random part of those with a known target gene and a result. Over the whole deposit, about 1,210 (5%) were called active. 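Inactive calls also include excluded dsRNAs with several or no targets, genes unexpressed in JW18, and well A1, regardless of score.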 Unmarked entries are inactive. Names joined by + are all predicted targets of the reagent. No sequences are given here.

- Aim: 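Genome-wide screen for host control of endosymbiont load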 (primary screen)
- System: Drosophila JW18 cells infected with Wolbachia
- Reagent: long dsRNA against Drosophila genes, 0.25 µg dsRNA per well of a 384-well plate
- Timing: 5 days
- Challenge: cells persistently infected with Wolbachia before knock-down; no added drug
- Measurement: 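Imaged fluorescence in situ signal for Wolbachia 23S rRNA per DAPI-counted host cell, given as a robust z-score within each plate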
- Reading the numbers: Wolbachia per cell robust z: higher = more Wolbachia per host cell than the plate typical
- Hit rule: 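Active if absolute robust z reaches 1.5 in two or more of three replicates, leaving out multi- or no-target dsRNAs, genes unexpressed in JW18 and A1 wells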

gene,dsRNA,"Wolbachia per cell robust z, rep 1","Wolbachia per cell robust z, rep 2","Wolbachia per cell robust z, rep 3"
Lcp65Ac,DRSC11210,0.199,0.685,-3.31
Lcp65Ac,DRSC23931,0.229,-0.321,-1.24
CG17078,DRSC00484,-2.3,0.289,0.674
CG17078,DRSC24862,-0.308,-0.995,-0.108
Rab9Fb (Rab at 9Fb),DRSC19854,0.0829,0.482,-4.49
adp (adipose),DRSC06916,-0.194,0.128,-0.649
"SmydA-5 (SET and MYND domain containing, arthropod-specific, member 5)",DRSC04867,0.0806,-0.672,-0.485
"SmydA-5 (SET and MYND domain containing, arthropod-specific, member 5)",DRSC27930,1.3,-13.3,0.352
Rad60,DRSC15580,0.715,0.876,0.0921
COX7AL2 (Cytochrome c oxidase subunit 7A-like 2),DRSC38937,-1.21,-1.09,0.367
shrb (shrub),DRSC07061,2.72 (active),0.319,4.18
CG14453,DRSC11710,0.781,0.131,-0.838
CG14453,DRSC23780,-0.0487,1.23,0.000399
CG11598,DRSC14331,-0.0652,0.737,-0.446
CG11598,DRSC41509,0.81,0.434,0.0417
Pepck2 (Phosphoenolpyruvate carboxykinase 2),DRSC06013,0.924,1.07,1.09
Pepck2 (Phosphoenolpyruvate carboxykinase 2),DRSC26167,0.0879,-1.83,0.422
Pepck2 (Phosphoenolpyruvate carboxykinase 2),DRSC41592,-0.479,0.0147,-2.61
lncRNA:CR32658 (long non-coding RNA:CR32658),DRSC19402,0.222,-2.94,-5.31
lncRNA:CR32658 (long non-coding RNA:CR32658),DRSC26860,-0.197,-0.906,-0.465
CG33093,DRSC15775,0.949,0.153,-1.28
lovit (loss of visual transmission),DRSC37733,0.105,0.303,0.361
lovit (loss of visual transmission),DRSC37850,0.739,-0.662,-0.469
lovit (loss of visual transmission),DRSC41342,0.939,-1.76,-0.0423
didum (dilute class unconventional myosin),DRSC07603,0.472,0.585,0.271
didum (dilute class unconventional myosin),DRSC40837,-1.47,0.341,1.15
CG18268 + CG3014,DRSC15319,0.419,-1.37,-4.65
Sirt2 (Sirtuin 2),DRSC15714,-2.58 (active),-0.0897,-2.94
Sirt2 (Sirtuin 2),DRSC26964,0.0324,1.49,0.535

Entries above whose gene name starts with R or r (2):
gene,dsRNA,"Wolbachia per cell robust z, rep 1","Wolbachia per cell robust z, rep 2","Wolbachia per cell robust z, rep 3"
Rab9Fb (Rab at 9Fb),DRSC19854,0.0829,0.482,-4.49
Rad60,DRSC15580,0.715,0.876,0.0921
